The values below come from PMC11098746 (2024).

B1: ADP157 (protein)
chain: MGVPRPQPWALGLLLFLLPGSLGAESHLSLLYHLTAVSSPAPGTPAFWVSGWLGPQQYLSYNSLRGEAEPCGAWVWENQVSWYWEKETTDLRIKEKLFLEAFKALGGKGPYTLQGLLGCELGPDNTSVPTAKFALNGEEFMNFDLKQGTWGGDWPEALAISQRWQQQDKAANKELTFLLFSCPHRLREHLERGRGNLEWKEPPSMRLKARPSSPGFSVLTCSAFSFYPPELQLRFLRNGLAAGTGQGDFGPNSDGSFHASSSLTVKSGDEHHYCCIVQHAGLAQPLRVELESPAKSS
modifications: bait human Fc-tagged dimer
B2: ADP122 (protein)
chain: MVCFRLFPVPGSGLVLVCLVLGAVRSYALELNLTDSENATCLYAKWQMNFTVRYETTNKTYKTVTISDHGTVTYNGSICGDDQNGPKIAVQFGPGFSWIANFTKAASTYSIDSVSFSYNTGDNTTFPDAEDKGILTVDELLAIRIPLNDLFRCNSLSTLEKNDVVQHYWDVLVQAFVQNGTVSTNEFLCDKDKTSTVAPTIHTTVPSPTTTPTPKEKPEAGTYSVNNGNDTCLLATMGLQLNITQDKVASVININPNTTHSTGSCRSHTALLRLNSSTIKYLDFVFAVKNENRFYLKEVNISMYLVNGSVFSIANNNLSYWDAPLGSSYMCNKEQTVSVSGAFQINTFDLRVQPFNVTQGKYSTAQDCSADDDNFLVP
modifications: bait human Fc-tagged dimer
B3: ADP134 (protein)
chain: MVSSVSWGILLLAGLCCLVPVSLAEDPQGDAAQKTDTSHHDQDHPTFNKITPNLAEFAFSLYRQLAHQSNSTNIFFSPVSIATAFAMLSLGTKADTHDEILEGLNFNLTEIPEAQIHEGFQELLRTLNQPDSQLQLTTGNGLFLSEGLKLVDKFLEDVKKLYHSEAFTVNFGDTEEAKKQINDYVEKGTQGKIVDLVKELDRDTVFALVNYIFFKGKWERPFEVKDTEEEDFHVDQVTTVKVPMMKRLGMFNIQHCKKLSSWVLLMKYLGNATAIFFLPDEGKLQHLENELTHDIITKFLENEDRRSASLHLPKLSITGTYDLKSVLGQLGITKVFSNGADLSGVTEEAPLKLSKAVHKAVLTIDEKGTEAAGAMFLEAIPMSIPPEVKFNKPFVFLMIEQNTKSPLFMGKVVNPTQK
modifications: bait human Fc-tagged dimer
B4: ADP369 (protein)
chain: MGAAAGRSPHLGPAPARRPQRSLLLLQLLLLVAAPGSTQAQAAPFPELCSYTWEAVDTKNNVLYKINICGSVDIVQCGPSSAVCMHDLKTRTYHSVGDSVLRSATRSLLEFNTTVSCDQQGTNHRVQSSIAFLCGKTLGTPEFVTATECVHYFEWRTTAACKKDIFKANKEVPCYVFDEELRKHDLNPLIKLSGAYLVDDSDPDTSLFINVCRDIDTLRDPGSQLRACPPGTAACLVRGHQAFDVGQPRDGLKLVRKDRLVLSYVREEAGKLDFCDGHSPAVTITFVCPSERREGTIPKLTAKSNCRYEIEWITEYACHRDYLESKTCSLSGEQQDVSIDLTPLAQSGGSSYISDGKEYLFYLNVCGETEIQFCNKKQAAVCQVKKSDTSQVKAAGRYHNQTLRYSDGDLTLIYFGGDECSSGFQRMSVINFECNKTAGNDGKGTPVFTGEVDCTYFFTWDTEYACVKEKEDLLCGATDGKKRYDLSALVRHAEPEQNWEAVDGSQTETEKKHFFINICHRVLQEGKARGCPEDAAVCAVDKNGSKNLGKFISSPMKEKGNIQLSYSDGDDCGHGKKIKTNITLVCKPGDLESAPVLRTSGEGGCFYEFEWHTAAACVLSKTEGENCTVFDSQAGFSFDLSPLTKKNGAYKVETKKYDFYINVCGPVSVSPCQPDSGACQVAKSDEKTWNLGLSNAKLSYYDGMIQLNYRGGTPYNNERHTPRATLITFLCDRDAGVGFPEYQEEDNSTYNFRWYTSYACPEEPLECVVTDPSTLEQYDLSSLAKSEGGLGGNWYAMDNSGEHVTWRKYYINVCRPLNPVPGCNRYASACQMKYEKDQGSFTEVVSISNLGMAKTGPVVEDSGSLLLEYVNGSACTTSDGRQTTYTTRIHLVCSRGRLNSHPIFSLNWECVVSFLWNTEAACPIQTTTDTDQACSIRDPNSGFVFNLNPLNSSQGYNVSGIGKIFMFNVCGTMPVCGTILGKPASGCEAETQTEELKNWKPARPVGIEKSLQLSTEGFITLTYKGPLSAKGTADAFIVRFVCNDDVYSGPLKFLHQDIDSGQGIRNTYFEFETALACVPSPVDCQVTDLAGNEYDLTGLSTVRKPWTAVDTSVDGRKRTFYLSVCNPLPYIPGCQGSAVGSCLVSEGNSWNLGVVQMSPQAAANGSLSIMYVNGDKCGNQRFSTRITFECAQISGSPAFQLQDGCEYVFIWRTVEACPVVRVEGDNCEVKDPRHGNLYDLKPLGLNDTIVSAGEYTYYFRVCGKLSSDVCPTSDKSKVVSSCQEKREPQGFHKVAGLLTQKLTYENGLLKMNFTGGDTCHKVYQRSTAIFFYCDRGTQRPVFLKETSDCSYLFEWRTQYACPPFD
modifications: bait human Fc-tagged dimer
B5: ADP113 (protein)
chain: MVRLPLQCVLWGCLLTAVHPEPPTACREKQYLINSQCCSLCQPGQKLVSDCTEFTETECLPCGESEFLDTWNRETHCHQHKYCDPNLGLRVQQKGTSETDTICTCEEGWHCTSEACESCVLHRSCSPGFGVKQIATGVSDTICEPCPVGFFSNVSSAFEKCHPWTSCETKDLVVQQAGTNKTDVVCGPQDRL
modifications: bait human Fc-tagged dimer

In the test the target is Circumsporozoite protein (CSP) (Plasmodium falciparum (isolate 3D7)). Kind of test: AVEXIS screen signal:noise (double-corrected).
With B1, the binding score was determined as 0.924.

On to B2, for which the binding score is 1.66.

Consider B3, for which the binding score came out at 1.6.

With B4, the binding score is 0.692.

B5 displayed a binding score of 0.909.
